Anti-infective test results gathered from many reports (values: NIAID ChemDB through PubChem).

All rows: cytotoxicity tests; cells: MT-4; read by: MTT; read-out: CC50

Neighbouring rows are from separate reports.

| structure | result |
|---|---|
| C[C@H](CCC(=O)NCCS(=O)(=O)O)[C@H]1CC[C@H]2[C@@H]3CC[C@@H]4C[C@H](O)CC[C@]4(C)C3CC[C@]12C | 250 µg/mL |
| Cc1ccc(C(O)P(=O)(OC[C@H]2O[C@@H](n3cc(C)c(=O)[nH]c3=O)C[C@@H]2N=[N+]=[N-])Oc2ccccc2)cc1 | 42 µM |
| Nc1nc2c(ncn2[C@H]2C[C@]3(CO2)CC(F)(F)P(=O)(O)O3)c(=O)[nH]1 | >100 µM |
| COc1ccc(OP(=O)(OC[C@H]2O[C@@H](n3cc(C)c(=O)[nH]c3=O)C[C@@H]2N=[N+]=[N-])C(O)c2cccnc2)cc1 | 27 µM |
| CC(=O)c1ccc(NC(=O)CSc2nncnc2-c2ccccc2Cl)c(Br)c1 | 34 µM |
| Nc1ccccc1NC(=O)CSc1sc(Cl)nc1-c1ccc(Br)cc1Br | 109 µM |
| Nc1ncnc2c1ncn2[C@H]1C[C@]2(CO1)CC(F)(F)P(=O)(O)O2 | >100 µM |
| Cc1cn([C@H]2C[C@H](N=[N+]=[N-])[C@@H](COP(=O)(Oc3ccccc3)C(O)c3cccnc3)O2)c(=O)[nH]c1=O | >100 µM |
| O=C(CSc1sc(Cl)nc1-c1ccc(Br)cc1Br)Nc1ccccc1Br | 12.5 µM |
| Cc1cc(C)cc(-c2cc(C)c(Nc3ccnc(Nc4ccc(C#N)cc4)n3)c(C)c2)c1 | 2.08 µM |
| O=c1[nH]cnc2c1ncn2[C@H]1CC[C@@H](CO)O1 | >211 µM |
| O=c1[nH]cnc2c1ncn2[C@H]1CC[C@@H](CO)O1 | >211.7 µM |
| O=C1CSC(c2c(F)cccc2F)N1c1ccccc1 | 429 µM |
| CCOC(=O)c1ccc(NC(=O)CSc2nncnc2-c2cccc3ccccc23)c(Br)c1 | 105 µM |
| Cc1cc(C)c(Oc2ccc([N+](=O)[O-])c(NC3CCN(Cc4ccc(S(N)(=O)=O)cc4)CC3)n2)c(C)c1 | 22 µM |
| Nc1nc(-c2ccc(Br)cc2Br)c(SCC(=O)Nc2cccnc2Cl)s1 | 45.73 µM |
| CCCCCCCCCCCC(=O)O[C@@]12C[C@@H](C)[C@]34C=C(C)[C@H](O)[C@@]3(O)[C@H](O)C(COC(=O)c3ccccc3)=C[C@H](C4=O)[C@@H]1C2(C)C | 6.2 µg/mL |
| CCc1c(Cc2cc(C)cc(C)c2)n(COCC#CC#CCOCn2c(Cc3cc(C)cc(C)c3)c(CC)c(=O)[nH]c2=O)c(=O)[nH]c1=O | 9 µM |
| Cc1cc(C)c(Oc2ccc(N)c(NC3CCN(Cc4ccncc4)CC3)n2)c(C)c1 | 30 µM |
| Cc1cn([C@H]2C[C@]3(CO2)CC(F)(F)P(=O)(O)O3)c(=O)[nH]c1=O | 80 µM |
| COC(=O)c1sccc1NC(=O)CSc1nncnc1-c1ccccc1Cl | 105 µM |
| CC(C)(C)OC(=O)N1CCC(NC(=O)c2cc(O)c(O)c(O)c2)CC1 | 42.9 µM |
| CCc1c(Cc2cc(C)cc(C)c2)n(COCc2ccc(C#CC3(O)CCC4C5CCC6=CC(=O)CCC6C5CCC43CC)cc2)c(=O)[nH]c1=O | >100 µM |
| Cc1cccc(C)c1OP(=O)(OC[C@H]1O[C@@H](n2cc(C)c(=O)[nH]c2=O)C[C@@H]1N=[N+]=[N-])C(O)c1cccnc1 | 49 µM |
| Cc1ccnc(N2C(=O)CSC2c2c(F)cccc2Cl)c1 | >33.9 µM |
| O=C(CSc1nncnc1-c1ccccc1Cl)N1CCc2ccccc2C1 | >38 µM |
| C#CCOCn1c(Cc2ccccc2C)c(CC)c(=O)[nH]c1=O | 33 µM |
| CC(C)Nc1cccnc1N1CCN(C(=O)c2cc3cc(NS(C)(=O)=O)ccc3[nH]2)CC1 | >43.81 µM |
| O=C(NC1CCN(C(=O)c2ccc(F)cc2)CC1)c1cc(O)c(O)c(O)c1 | 30.8 µM |
| CCOCn1c(Cc2ccccc2)c(C(C)C)c(=O)[nH]c1=O | >100 µM |
| Cc1cn([C@H]2C[C@H](N=[N+]=[N-])[C@@H](CO)O2)c(=O)[nH]c1=O | <7.1 µM |
| Cc1cn([C@H]2C[C@H](N=[N+]=[N-])[C@@H](COP(=O)(O)C(O)c3cccnc3)O2)c(=O)[nH]c1=O | >100 µM |
| O=C(CSc1nncnc1-c1ccccc1Cl)Nc1cccnc1Cl | 167 µM |
| CCCCCCCCCCCC(=O)O[C@@]12C[C@@H](C)[C@]34C=C(C)[C@H](OC(=O)CCCCC)[C@@]3(O)[C@H](O)C(CO)=C[C@H](C4=O)[C@@H]1C2(C)C | 6.23 µg/mL |
| CO[C@@H]1C=C[C@@]23c4cc5c(cc4CN(C[C@@H]2O)[C@H]3C1)OCO5 | 1 µg/mL |
| O=C1CSC(c2c(Cl)cccc2Cl)N1c1cccnc1 | >23.4 µM |
| CO[C@@H]1C=C[C@@]23c4cc5c(cc4C(=O)O[C@H]2CN(C)[C@H]3C1)OCO5 | 7.5 µg/mL |
| O=[N+]([O-])c1ccc(CN2CCC(N=C3C=C(Cc4ccc(Cl)cc4Cl)NS(=O)(=O)N3)CC2)cc1 | 97.06 µM |
| O=C(O)P(=O)(O)O | 166 µg/mL |
| COc1cc2c(cc1OC)[C@H]1[C@H]3C(=CC[C@H]1OC2=O)CCN3C | 12.8 µg/mL |
| Cc1cc(C)c(Nc2ccc([N+](=O)[O-])c(NC3CCN(Cc4ccc(S(N)(=O)=O)cc4)CC3)n2)c(C)c1 | 14 µM |
| Cc1cn([C@@H]2C[C@@H](N=[N+]=[N-])[C@H](COP(=O)(O)OC3CCC4(C)C(CCC5C4CC(O)C4(C)C(C(C)CCC(=O)OC[C@@H]6CC[C@H](n7cnc8c(=O)[nH]cnc87)O6)CCC54)C3)O2)c(=O)[nH]c1=O | 42.22 µM |
| CC1=C[C@]23C(=O)[C@@H](C=C(COC(=O)C(C)(C)C)[C@@H](O)[C@]2(O)[C@H]1OC(=O)C(C)(C)C)[C@H]1[C@@H](C[C@H]3C)C1(C)C | 8.9 µg/mL |
| COc1ccc(Cc2nccc3cc(OC)c(OC)cc23)cc1OC | 1 µg/mL |
| CC(C)CN(C[C@@H](O)[C@H](Cc1ccccc1)NC(=O)O[C@H]1CCOC1)S(=O)(=O)c1ccc(N)cc1 | >100 µM |
| O=C1CSC(c2c(Cl)cccc2Cl)N1c1ccccn1 | >38.5 µM |
| Cc1ccc(NC(=O)CSc2nncnc2-c2ccccc2Cl)c(Br)c1 | 45 µM |
| O=C1Cc2ccccc2C(=O)N1O | 27.05 µM |
| Cc1cc(C)c(Nc2ccc([N+](=O)[O-])c(NC3CCN(Cc4ccc(C(N)=O)cc4)CC3)n2)c(C)c1 | 25 µM |
| CC(C)=CCN1Cc2cc(Cl)cc3[nH]c(=S)n(c23)C[C@@H]1C | >31.1 µM |
| CC(=O)Nc1nc(C)c(S(=O)(=O)N2CCC(NC(=O)c3cc(O)c(O)c(O)c3)CC2)s1 | 80 µM |
| CCc1c(Cc2cc(C)cc(C)c2)n(COCc2ccc(I)cc2)c(=O)[nH]c1=O | 19 µM |
| Cc1cn([C@H]2C[C@H](N=[N+]=[N-])[C@@H](COP(=O)(Oc3ccccc3)C(O)c3ccc([N+](=O)[O-])cc3)O2)c(=O)[nH]c1=O | 37 µM |
| O=C(CSc1nncnc1-c1ccccc1Cl)Nc1ccccc1Br | 73 µM |
| Cc1ccnc2c1NC(=O)c1cccnc1N2C1CC1 | 676 µM |
| CCOP(=O)(N[C@@H](CC(C)C)C(=O)OC)OC[C@H]1O[C@@H](n2cc(C)c(=O)[nH]c2=O)C[C@@H]1N=[N+]=[N-] | >234 µg/mL |
| O=S1(=O)NC(Cc2cccc3ccccc23)=CC(=NC2CCN(Cc3c(Cl)cccc3Cl)CC2)N1 | 54.73 µM |
| CCC12CCC3C4CCC(=O)C=C4CCC3C1CCC2(O)C#CC#CC1(O)CCC2C3CCC4=CC(=O)CCC4C3CCC21CC | 28 µM |
| Cc1ccccc1NC(=O)CSc1sc(Cl)nc1-c1ccc(Br)cc1Br | 26.94 µM |
| O=c1[nH]cnc2c1ncn2[C@H]1CC[C@@H](CO)O1 | 1060 µM |
| COc1ccc(CN2CCC(N=C3C=C(Cc4ccc(Cl)cc4Cl)NS(=O)(=O)N3)CC2)cc1 | 109 µM |
| CCOP(=O)(OCC)C(F)(F)C[C@@]1(O)CO[C@@H](n2ccc(N)nc2=O)C1 | 90 µM |
| CCS(=O)(=O)N1CCC(NC(=O)c2cc(O)c(O)c(O)c2)CC1 | 36.6 µM |
| CS(=O)(=O)c1ccc(CN2CCC(N=C3C=C(Cc4cccc5ccccc45)NS(=O)(=O)N3)CC2)cc1 | >232 µM |
| Nc1ccn([C@H]2CC[C@@H](CO)O2)c(=O)n1 | >94 µM |
| CC(C)(C)OC(=O)[C@@H]1CCCN1C[C@@H](O)[C@H](Cc1ccccc1)NC(=O)[C@H](CC(N)=O)NC(=O)OCc1ccccc1 | >204 µg/mL |
| COc1cccc(C(=O)N2CCC(NC(=O)c3cc(O)c(O)c(O)c3)CC2)c1 | 76.6 µM |
| CC(=O)c1ccc(CN2CCC(N=C3C=C(Cc4ccc(Cl)cc4Cl)NS(=O)(=O)N3)CC2)cc1 | 99.45 µM |
| O=C(CSc1nncnc1-c1ccccc1Cl)Nc1ccccc1F | 98 µM |
| CCCCCCCCCCCCCCCCCC(=O)O[C@H]1C(C)=C[C@]23C(=O)[C@@H](C=C(CO)[C@@H](O)[C@]12O)[C@@H]1C(C)(C)[C@]1(OC(=O)CCCCCCCCCCC)C[C@H]3C | 93.5 µg/mL |
| CCCCN1C[C@H](O)[C@@H](O)[C@H](O)[C@H]1CO | >250 µg/mL |
| N#Cc1ccc(CN2CCC(N=C3C=C(Cc4ccc(Cl)cc4Cl)NS(=O)(=O)N3)CC2)cc1 | 101 µM |
| COC(=O)N[C@@H](Cc1c[nH]c2ccccc12)C(=O)NCCCC[C@@H](CO)N(CC(C)C)S(=O)(=O)c1ccc(N)cc1 | 40 µM |
| COc1ccc2c(c1)N(C(=O)OC(C)C)[C@@H](CSC)C(=S)N2 | >29.4 µM |

The last 6 rows once more:

structure	result
O=C(CSc1nncnc1-c1ccccc1Cl)Nc1ccccc1F	98 µM
CCCCCCCCCCCCCCCCCC(=O)O[C@H]1C(C)=C[C@]23C(=O)[C@@H](C=C(CO)[C@@H](O)[C@]12O)[C@@H]1C(C)(C)[C@]1(OC(=O)CCCCCCCCCCC)C[C@H]3C	93.5 µg/mL
CCCCN1C[C@H](O)[C@@H](O)[C@H](O)[C@H]1CO	>250 µg/mL
N#Cc1ccc(CN2CCC(N=C3C=C(Cc4ccc(Cl)cc4Cl)NS(=O)(=O)N3)CC2)cc1	101 µM
COC(=O)N[C@@H](Cc1c[nH]c2ccccc12)C(=O)NCCCC[C@@H](CO)N(CC(C)C)S(=O)(=O)c1ccc(N)cc1	40 µM
COc1ccc2c(c1)N(C(=O)OC(C)C)[C@@H](CSC)C(=S)N2	>29.4 µM

CCn: concentration that lowers growth or viability of the cells by n%.